Pooled drug test results. Numbers come from NIAID ChemDB, via PubChem.

Shared fields: tests on isolated targets; agent: HIV-1; protein: Protease

Blank or dashed fields: not listed here.

smiles | method | measure | result
CC(C)[C@@H](/C=C/C(=O)O)NC(=O)c1cc2ccccc2c(-c2c(O)c(C(=O)N[C@H](/C=C/C(=O)O)C(C)C)cc3ccccc23)c1O | - | IC50 | 13 µM
CC[C@H](C)[C@H](NC(=O)[C@@H](NC(=O)CCCCCCCCCCCCCCC(=O)N[C@@H](CC(N)=O)C(=O)N[C@@H](Cc1ccccc1)C(=O)O)C(C)O)C(=O)N[C@@H](Cc1ccccc1)C(N)=O | - | Ki | 0.5 µM
CC(C)(C)OC(=O)N[C@@H](Cc1ccccc1)[C@@H](O)C[N+](C)(Cc1ccccc1)/N=C(\[O-])c1cccc(N)c1 | HPLC | IC50 | 2.4 µM
CC(C)C[C@H](NC(=O)[C@@H](NC(=O)CCCCCCCCCCCCCCC(=O)N[C@@H](CCS(C)(=O)=O)C(=O)N[C@@H](Cc1ccccc1)C(=O)O)C(C)O)C(=O)N[C@@H](Cc1ccccc1)C(N)=O | - | IC50 | 5.3 µM
CC(C)[C@H](NC(=O)c1cc2ccccc2c(Cc2c(O)c(C(=O)N[C@H](C(=O)O)C(C)C)cc3ccccc23)c1O)C(=O)O | - | Ki | 15.8 µM
C[N+](Cc1ccccc1)(C[C@H](O)[C@H](Cc1ccccc1)NC(=O)N1CCOCC1)/N=C(\[O-])c1ccccc1 | HPLC | IC50 | 6 µM
CC1(C)CC[C@]2(C(=O)O)CC[C@]3(C)C(=CC[C@@H]4[C@@]5(C)CC/C(=N\O)C(C)(C)[C@@H]5CC[C@]43C)[C@@H]2C1 | HPLC | IC50 | 5.5 µM
COC(=O)[C@@H](NC(=O)[C@@H](NC(=O)CC[C@H](O)[C@H](Cc1ccccc1)NC(=O)[C@H](C)NC(=O)[C@H](C)NC(=O)OCc1ccccc1)C(C)C)C(C)C | HPLC | Ki | 0.048 µM
CC(C)C[C@H](NC(=O)[C@@H](NC(=O)CCCCCCCCCCCCCCC(=O)N[C@H](C(=O)N[C@@H](Cc1ccccc1)C(=O)O)C(C)C)C(C)O)C(=O)N[C@@H](Cc1ccccc1)C(N)=O | - | IC50 | 3.5 µM
COC(=O)[C@]12CCC(C)(C)C[C@H]1C1=CC[C@@H]3[C@@]4(C)CC/C(=N\O)C(C)(C)[C@@H]4CC[C@@]3(C)[C@]1(C)CC2 | HPLC | IC50 | 9.5 µM
COC(=O)[C@@H]1CCCN1C(=O)C(=O)C(Cc1ccccc1)NC(=O)OC(C)(C)C | substrate cleavage | IC50 | 7 µM
COC(=O)[C@]12CCC(C)(C)C[C@H]1C1=CC[C@@H]3[C@@]4(C)CC/C(=N\OC(=O)CCCCC(=O)Oc5c(OC)ccc6c5[C@@]57CCC(C)[C@@H](C6)C5=C(OC)C(OC(C)=O)C(OC(C)=O)C7)C(C)(C)[C@@H]4CC[C@@]3(C)[C@]1(C)CC2 | HPLC | IC50 | >100 µM
CC(C)[C@@H](/C=C/C(=O)O)NC(=O)c1cc2ccccc2c(Cc2c(O)c(C(=O)N[C@H](/C=C/C(=O)O)C(C)C)cc3ccccc23)c1O | - | IC50 | 8 µM
CC(C)C[C@H](NC(=O)[C@@H](NC(=O)CCCCCCCCCCCCCCC(=O)N[C@@H](CS(C)(=O)=O)C(=O)N[C@@H](Cc1ccccc1)C(=O)O)C(C)O)C(=O)N[C@@H](Cc1ccccc1)C(N)=O | - | Ki | 0.904 µM
COC(=O)[C@]12CCC(C)(C)CC1C1=CCC3[C@@]4(C)CC[C@@H](NC(=O)CCCCC(=O)O)C(C)(C)C4CC[C@@]3(C)[C@]1(C)CC2 | HPLC | IC50 | 3.5 µM
CC(C)C[C@H](NC(=O)[C@@H](N)COCc1ccccc1)C(=O)N[C@@H](CC(N)=O)C(=O)N[C@@H](Cc1ccccc1)C(=O)Cc1ccccc1 | substrate cleavage | IC50 | 45 µM
CC(C)[C@H](NC(=O)[C@@H](NC(=O)[C@H](C)C[C@H](O)[C@H](Cc1ccccc1)NC(=O)[C@H](C)NC(=O)OCc1ccccc1)C(C)C)C(=O)O | HPLC | Ki | 0.002 µM
CC(C)/C([O-])=N/[N+](C)(Cc1ccccc1)C[C@H](O)[C@H](Cc1ccccc1)NC(=O)OC(C)(C)C | HPLC | IC50 | 2.5 µM
CC(C)C[C@H](NC(=O)[C@@H](NC(=O)CCCCCCCCCCCCCCC(=O)N[C@@H](CC(N)=O)C(=O)N[C@@H](Cc1ccccc1)C(=O)O)C(C)O)C(=O)N[C@H](C(N)=O)C1CCCCC1 | - | IC50 | 3.1 µM
CC(C)(C)OC(=O)N(C(=O)[C@@H](N)CC(N)=O)[C@@H](Cc1ccccc1)[C@@H](O)C[N+](C)(Cc1ccccc1)/N=C(\[O-])c1ccccc1 | HPLC | IC50 | 34 µM
CC(C)C[C@H](NC(=O)[C@@H](NC(=O)CCCCCCCCCCCCCCC(=O)N[C@@H](CC(N)=O)C(=O)N[C@@H](Cc1ccccc1)C(=O)O)C(C)O)C(=O)N[C@@H](CCc1ccccc1)C(N)=O | - | Ki | 2.15 µM
CC(C)[C@H](NC(=O)[C@H](Cc1ccccc1)C[C@H](O)[C@H](Cc1ccccc1)NC(=O)[C@H](C)NC(=O)OCc1ccccc1)C(N)=O | HPLC | Ki | 0.0007 µM
COC(=O)[C@@H]1CCCN1C(=O)[C@H](O)[C@H](Cc1ccccc1)NC(=O)OC(C)(C)C | substrate cleavage | IC50 | >>50 µM

Repeating the final 2 entries:

smiles	method	measure	result
CC(C)[C@H](NC(=O)[C@H](Cc1ccccc1)C[C@H](O)[C@H](Cc1ccccc1)NC(=O)[C@H](C)NC(=O)OCc1ccccc1)C(N)=O	HPLC	Ki	0.0007 µM
COC(=O)[C@@H]1CCCN1C(=O)[C@H](O)[C@H](Cc1ccccc1)NC(=O)OC(C)(C)C	substrate cleavage	IC50	>>50 µM

Conditions beyond the fields shown may differ between rows. ICn is the concentration giving n% inhibition.